Substitutions are numbered along the chain they refer to. Human monoclonal antibodies against the spike receptor-binding domain (heavy:light variable regions). IC50 against pseudoviruses bearing the spike of naturally observed variants; lower = stronger; >10 µg/ml means not reached at the top dose. No active / inactive call. The stated detection limit is 0.0005 µg/ml; values near or below 0.001 µg/ml lie at the floor of the assay. Some results are limits rather than exact numbers.

The labels stand for the following.
B1: BD55-5919 (protein)
chain 1: QVQLVQSGAEVKKPGASVKVSCKVSGNTLRELSIYWVRQAPGKGLEWMGGFDPEDGKTIYAQKFQGRVIMTEDTSTDTAYMELSSLRSEDTAMYYCATAPRYSGYDYFYYYNGMDVWGQGTTVTVSS
chain 2: DIQMTQSPPSLSASVGDRVTITCRASQGISNHLAWFQQKPGKAPKPLVYAASSLQSGVPSKFSGSGSGTDFTLTISSLQPEDFATYYCQQYNSYPRTFGGGTKVEIK
B2: BD55-1117 (protein)
chain 1: EVQLVESGGVAVQPGGSLRLSCAGSGFTFDDYTMHWVRQPPGKGLEWVSLITWDGYTTHYADSVKGRFTISRDNSKNALYLQMNSLRTDDTALYYCAKDTHGGITTSWFWGQGTLVTVSS
chain 2: QSGLTQPPSVSATPGQKVTISCSGGSSNIGKNYVSWYQHLPGTAPKLLIYDNYKRPSGIPDRFSGSKSGTSATLTITGLQTGDEADYYCGSWDTSLFVVLLGGGTKVTVL
B3: BD55-5918 (protein)
chain 1: QVQLVQSGAEAKKPGSSVKVSCKASGGTFNNYAINWVRQAPGQGLEWMGRIIPILDIPNYAQNFQGRVTFTADKFTGTAYMELSSLRSEDTAVFYCATSAYESSYSSSAYPLDYWGQGSLVTVSS
chain 2: DIQMTQSPSSLSASVGDRVTITCRASQTISNYLHWYQQQPGKAPRLLIYAASSLQGGVPSRFSGSGSGTEFTLTISSLHPEDFATYYCQQTYSAPRTFGQGTKVEFK
B4: BD55-5896 (protein)
chain 1: QVQLVQSGAEVKKPGSSVKVSCKASGGTISRDGIVWVRQAPGQGLEWMGGIIPIYGTTDYAQKFQRKVTITADKSTSTAYMELSSLRSEDTALYYCARARRYDILTAPGTFDIWGQGTMVTVSS
chain 2: SSELTQDPAVSVALGQTVRITCHGDSLRSFYASWYQQKAGQAPVLVISDENNRPSGVPDRFSGSSSGNTASLTITGAQAEDEADYYCNSRDISGNHLVFGGGTKLTVL
B5: BD55-5898 (protein)
chain 1: QVQLVQSGAEVKKPGASVKVSCKASGYTFTTYDINWVRQATGQRPEWMGWMNPNSGNTGYAHNFQGRVTMTRNTSISTAYMELSSLRSEDTAVYYCARGLSSTSYYYYAMDVWGQGTTVTVSS
chain 2: DIQMTQSPSSLSASVGDRVTITCRASQSISYYLNWYQQKPGKAPKLLIYTASSLQSGVPSRFSGSGSGTDFTLTISSLQPEDFATYFCQQSYSTPGTFGQGTKVEIK
B6: BD55-5912 (protein)
chain 1: QVQLQQWGAGLLKPSEALSLTCAVYGESFSGYYWSWIRQPPGKGLEWIGEINHSGSTNYNPSLKSRVTISVHTSKNQFSLRLSSVTAADTAVYYCATGDSSSFWHAFDIWGQGTMVTVSS
chain 2: DIVMTQSPDSLAVSLGERATINCKSSQSVLYSSNNKNYLGWYQQKPGQPPKLLISWASTRESGVVDRFSGSGSGTDFTLTISSLQAEDVAVYYCQQYYSSPLTFGQGTKVEIK
B7: BD55-5891 (protein)
chain 1: QVQLVQSGAEVKKPGASVKVSCKASGYTFSNYDINWVRQASGQGLEWMGWMNPNSGDTGYAQKFQGRVSMSRNTALSTAYMELSSLTSEDTAVYYCAREWGAHLKVRHENCFDPWGQGTLVTVSS
chain 2: DIEMTQSPTSLSASVGDRVAIPCRASQSISTYLNWYQQKPGKAPKLLIYGASTLQSGVPSRFSGSGSGTDFTLTISSLRPEDFATYHCQQSYSAPYTFGQGTKLEIK
B8: BD55-5895 (protein)
chain 1: QLQLQESGPGLVKPSETLSLTCTVSGGSISSSSYYWGWIRQPPGKGLEWIGSLDYSGSTYYNPSLNNRVTISVDTSKNQFSLNLYSVTAADTAVYYCARSIAAPGTLDWFDPWGQGTLVTVSS
chain 2: QSVLTQPPSVSGAPGQRVTISCTGSSSNIGAGYDVHWYQQLPGTAPKLLIYGYTNRPSGVPDRFSGSKSGTSASLAITGLQAEDEADYYCQSYDSSLSGWVFGGGTKLTVL
B9: BD55-5917 (protein)
chain 1: QVQLQESGPGLVKSSETLSLTCTVSGGSVNFYYWSWIRQPPGRGLEWIGFIHSSGSANYNPSLKSRVTISVDTSKDQFSLKLRSVTAADTAVYYCASYGGQGYNWLDPWGQGALVTVSS
chain 2: QSVLTQPPSVSAAPGQKVTISCSGSSSNIGNNFVSWYQQLPGTAPKLLIYDNTKRPSGIPDRFSGSKSGTSATLGITGLQTGDEADYYCGTWDSSLSAVIFGGGTKLTVL
B10: BD55-5892 (protein)
chain 1: EVQLVESGGGLVKPGRSLRLSCTASGFTFGDYGIYWFRQAPGKGLEWVASIRSKAYGGTTDYAASVHGRFTISRDDSKSIAYLQMNSLKTEDTAVYYCSREARHSSSPYYYYTMDVWGQGTTVPVSS
chain 2: DIQMTQSPSSLSASVGDRVTITCRASQTISYYLNWYQQKPGKAPKLLIYATSTLQSGVPSRFSGSGSGTDFTLTIISLQPEDFATYYCQHSYSLPITFGQGTRLEIE
B11: BD55-5913 (protein)
chain 1: QVQLVQSGAEVKKPGASVKVSCKASAYTFTNFDVNWVRQAAGQGLEWMGWMNPNSGNTGYSHKFQGRVAMTRNISISTAYMELSSLKSEDTAVYYCAIHFNSQHSYYYYTMDVWGQGTTVIVSS
chain 2: B5 chain 2 with S28T, L33C, T50A, S53T, F87Y, Q90E, G96P, T97S
B12: BD55-5904 (protein)
chain 1: QVQLVQSGAEVKKPGSSLKVSCKASGGTFSTYVISWVRQAPGQGLEWLGEIIPILDIANYAQGFQGRVTITADKATNTAYMELSSLRSEDTAVYYCARAQIVDILMAYNPVYYYGMDVWGQGTTVTVSS
chain 2: DIQLTQSPSFLSASVGDRVTITCRASQGISSYLAWYQQKPGKVPKLLIYAASTLQSGVPSRFSGSGSGTEFTLTISSLQPEDFATYYCQQLNSYPLTFGGGTKVEIK

One assay deals with SARS-CoV-2 Omicron BA.1 spike pseudovirus. Nature of the assay: pseudovirus neutralization IC50; higher = weaker neutralization. As for the experimental part: (§1)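 Single-round VSV luciferase pseudovirus mixed with antibody dilutions for 1 h and put on Huh-7 cells for about a day; IC50 from the dose curve.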
In the case of B1, the “pseudovirus neutralization IC50” value was more than 10 µg/mL.
The same measure, in the same setting: for B2 the value was 0.349 µg/mL; for B3, more than 10 µg/mL.
Turning to B4, the “pseudovirus neutralization IC50” value is more than 10 µg/mL.
Turning to B5, the “pseudovirus neutralization IC50” value was more than 10 µg/mL.
Consider B6, for which the “pseudovirus neutralization IC50” value was found to be 0.481 µg/mL.
Take B7: the “pseudovirus neutralization IC50” value is more than 10 µg/mL.
For the molecule B8, the “pseudovirus neutralization IC50” value was 0.00987 µg/mL.
Consider B9, for which the “pseudovirus neutralization IC50” value was more than 10 µg/mL.
The same measure, in the same setting: the result for B10 reads more than 10 µg/mL; that for B11, more than 10 µg/mL; that for B12, more than 10 µg/mL.

In the next assay the target is SARS-CoV-2 Omicron BA.2 spike pseudovirus. The assay is described as above. As for the experimental part:
as §1
Regarding B1, the “pseudovirus neutralization IC50” value is more than 10 µg/mL.
For the molecule B2, the “pseudovirus neutralization IC50” value was more than 10 µg/mL.
B3: the “pseudovirus neutralization IC50” value is more than 10 µg/mL.
Same read-out and setting: for B4 the value was more than 10 µg/mL; for B5, more than 10 µg/mL.
Still for that read-out and setting: the result for B6 reads 0.458 µg/mL.
For B7, the “pseudovirus neutralization IC50” value was more than 10 µg/mL.
The same measure, in the same setting: for B8 the value was 0.0141 µg/mL; for B9, more than 10 µg/mL; for B10, more than 10 µg/mL.
Turning to B11, the “pseudovirus neutralization IC50” value was more than 10 µg/mL.
On the same count and under the same terms, the result for B12 reads more than 10 µg/mL.

For another assay, the target named is SARS-CoV-2 Omicron BA.2.75 spike pseudovirus. Described as above. The procedure:
as §1
For B1, the “pseudovirus neutralization IC50” value is more than 10 µg/mL.
On the same count and under the same terms, the result for B2 reads more than 10 µg/mL; that for B3, more than 10 µg/mL.
Regarding B4, the “pseudovirus neutralization IC50” value is more than 10 µg/mL.
Take B5: the “pseudovirus neutralization IC50” value is more than 10 µg/mL.
For B6, the “pseudovirus neutralization IC50” value came to 0.0957 µg/mL.
As for B7, the “pseudovirus neutralization IC50” value was more than 10 µg/mL.
On the same count and under the same terms, for B8 the value was 0.0128 µg/mL; for B9, more than 10 µg/mL; for B10, more than 10 µg/mL.
With B11, the “pseudovirus neutralization IC50” value was more than 10 µg/mL.
For B12, the “pseudovirus neutralization IC50” value is more than 10 µg/mL.

A further assay deals with SARS-CoV-2 Omicron BA.5 spike pseudovirus. Described as above. The procedure: as §1
Regarding B1, the “pseudovirus neutralization IC50” value is more than 10 µg/mL.
With B2, the “pseudovirus neutralization IC50” value is more than 10 µg/mL.
Regarding B3, the “pseudovirus neutralization IC50” value was more than 10 µg/mL.
Consider B4, for which the “pseudovirus neutralization IC50” value is more than 10 µg/mL.
B5: the “pseudovirus neutralization IC50” value was more than 10 µg/mL.
As for B6, the “pseudovirus neutralization IC50” value is more than 10 µg/mL.
The same measure, in the same setting: the result for B7 reads more than 10 µg/mL.
Consider B8, for which the “pseudovirus neutralization IC50” value was determined as 1.17 µg/mL.
Consider B9, for which the “pseudovirus neutralization IC50” value is more than 10 µg/mL.
As for B10, the “pseudovirus neutralization IC50” value was more than 10 µg/mL.
As for B11, the “pseudovirus neutralization IC50” value is more than 10 µg/mL.
For the molecule B12, the “pseudovirus neutralization IC50” value is more than 10 µg/mL.

A further assay deals with SARS-CoV-2 Omicron BQ.1.1 spike pseudovirus. The assay is described as above. As for the experimental part: as §1
B1: the “pseudovirus neutralization IC50” value was more than 10 µg/mL.
Still for that read-out and setting: for B2 the value was more than 10 µg/mL.
For B3, the “pseudovirus neutralization IC50” value is more than 10 µg/mL.
The same measure, in the same setting: the result for B4 reads more than 10 µg/mL; that for B5, more than 10 µg/mL.
Turning to B6, the “pseudovirus neutralization IC50” value was more than 10 µg/mL.
Turning to B7, the “pseudovirus neutralization IC50” value was more than 10 µg/mL.
The same measure, in the same setting: for B8 the value was more than 10 µg/mL; for B9, more than 10 µg/mL.
As to B10, the “pseudovirus neutralization IC50” value is more than 10 µg/mL.
Consider B11, for which the “pseudovirus neutralization IC50” value was more than 10 µg/mL.
For the molecule B12, the “pseudovirus neutralization IC50” value is more than 10 µg/mL.

In the next assay the target is SARS-CoV-2 Omicron XBB spike pseudovirus. Described as above. The procedure: as §1
On to B1, for which the “pseudovirus neutralization IC50” value was more than 10 µg/mL.
Take B2: the “pseudovirus neutralization IC50” value is more than 10 µg/mL.
Turning to B3, the “pseudovirus neutralization IC50” value is more than 10 µg/mL.
Same read-out and setting: the result for B4 reads more than 10 µg/mL.
For the molecule B5, the “pseudovirus neutralization IC50” value was more than 10 µg/mL.
As for B6, the “pseudovirus neutralization IC50” value is more than 10 µg/mL.
As for B7, the “pseudovirus neutralization IC50” value was more than 10 µg/mL.
With B8, the “pseudovirus neutralization IC50” value is more than 10 µg/mL.
Still for that read-out and setting: for B9 the value was more than 10 µg/mL.
Regarding B10, the “pseudovirus neutralization IC50” value was more than 10 µg/mL.
As to B11, the “pseudovirus neutralization IC50” value is more than 10 µg/mL.
Take B12: the “pseudovirus neutralization IC50” value was more than 10 µg/mL.

The target in the next assay is SARS-CoV-2 early D614G spike pseudovirus. The assay is described as above. The procedure: as §1
Regarding B1, the “pseudovirus neutralization IC50” value was more than 10 µg/mL.
Regarding B2, the “pseudovirus neutralization IC50” value was 0.487 µg/mL.
With B3, the “pseudovirus neutralization IC50” value turned out to be 0.0018 µg/mL.
On the same count and under the same terms, for B4 the value was more than 10 µg/mL; for B5, more than 10 µg/mL.
On to B6, for which the “pseudovirus neutralization IC50” value amounted to 0.0205 µg/mL.
For the molecule B7, the “pseudovirus neutralization IC50” value is more than 10 µg/mL.
In the case of B8, the “pseudovirus neutralization IC50” value came out at 0.00316 µg/mL.
B9: the “pseudovirus neutralization IC50” value was determined as 0.00204 µg/mL.
In the case of B10, the “pseudovirus neutralization IC50” value is more than 10 µg/mL.
With B11, the “pseudovirus neutralization IC50” value was more than 10 µg/mL.
On the same count and under the same terms, the result for B12 reads more than 10 µg/mL.

The record behind these values is the supplement of paper PMC9931576.
